Pooled drug test results. Numbers come from NIAID ChemDB, via PubChem.

Common to all: cytotoxicity tests; cells: 1A2; method: XTT; endpoint: CC50

CCn: concentration that lowers growth or viability of the cells by n%. Conditions beyond the fields shown may differ between rows.

{"SMILES": "NS(=O)(=O)c1ccc(NC(=O)c2ccccc2SSc2ccccc2C(=O)Nc2ccc(S(N)(=O)=O)cc2)cc1", "value": ">40 µM"}
{"SMILES": "C=C1CC23CCC4[C@@](C)(CCC[C@@]4(C)C(=O)O)C2CC[C@H]1C3", "value": "42.7 µg/mL"}
{"SMILES": "COc1cc(O)c2c(=O)cc(-c3c(OC)c(OC)c(OC)c(OC)c3OC)oc2c1", "value": ">125 µg/mL"}
{"SMILES": "CCCc1cc(=O)oc2c3c(c4c(c12)OC(C)(C)C=C4)OC(C)C(C)C3O", "value": "35 µM"}
{"SMILES": "C[C@@]12CCC[C@@](C)(C(=O)O)C1CC[C@@]13C[C@H](CCC12)[C@](C)(O)C3", "value": ">125 µg/mL"}
{"SMILES": "CC(C)=CC(=O)C[C@@H](C)[C@H]1CC[C@@]2(C)[C@@H]3CC[C@H]4[C@](C)(C(=O)O)[C@@H](O)CC[C@@]45C[C@@]35CC[C@]12C", "value": "125 µg/mL"}
{"SMILES": "NC(=O)NC1NC(=O)NC1=O", "value": ">125 µg/mL"}
{"SMILES": "CC(C)=CC(=O)C[C@@H](C)[C@H]1CC[C@@]2(C)[C@@H]3CC[C@H]4C(C)(C)[C@@H](O)C[C@H](O)[C@@]45C[C@@]35CC[C@]12C", "value": "33.4 µg/mL"}
{"SMILES": "O=C(/C=C/c1ccc(O)cc1)O[C@H]1[C@@H]2C=CO[C@@H](OC3OC(CO)C(O)C(O)C3O)[C@@H]2[C@@]2(CO)O[C@@H]12", "value": ">246 µM"}
{"SMILES": "COc1cc(O)c2c(=O)cc(-c3cc(OC)c(OC)c(OC)c3OC)oc2c1", "value": ">125 µg/mL"}
{"SMILES": "C=C[C@@](C)(O)CC/C(C)=C/C(=O)O[C@H]1[C@@H]2C=CO[C@@H](OC3OC(CO)C(O)C(O)C3O)[C@@H]2[C@@]2(CO)O[C@@H]12", "value": ">237 µM"}
{"SMILES": "C=C1[C@H]2CCC3C(CCC4[C@@]3(C)CCC[C@@]4(C)C(=O)O)(C2)[C@@H]1OC(C)=O", "value": "189.1 µg/mL"}
{"SMILES": "Cc1c(Sc2ccccc2)n(COCCO)c(=O)[nH]c1=O", "value": ">0.7 µM"}
{"SMILES": "O=c1c(OC2OC(CO)C(O)C(O)C2O)c(-c2ccc(O)c(O)c2)oc2cc(O)cc(O)c12", "value": ">269 µM"}
{"SMILES": "C=C1[C@H]2CCC3C(CCC4[C@@]3(C)CCC[C@@]4(C)C(=O)O)(C2)[C@@H]1O", "value": "104.8 µg/mL"}

Repeating the first 2 entries:

{"SMILES": "NS(=O)(=O)c1ccc(NC(=O)c2ccccc2SSc2ccccc2C(=O)Nc2ccc(S(N)(=O)=O)cc2)cc1", "value": ">40 µM"}
{"SMILES": "C=C1CC23CCC4[C@@](C)(CCC[C@@]4(C)C(=O)O)C2CC[C@H]1C3", "value": "42.7 µg/mL"}